A mixed list of measured activities; the numbers were collected in NIAID ChemDB.

Shared fields: growth or infection tests

Conditions beyond the fields shown may differ between rows.

SMILES	read-out	tested at	cells	method	strain or isolate	species	changes	result
COc1ccc2cc3[n+](cc2c1OC)CCc1cc2c(cc1-3)OCO2	inhibition	1 µg/mL	RK-13	-	-	Encephalitozoon intestinalis	-	62%
Nc1nccc2c1ncn2[C@@H]1C[C@H](CO)[C@@H](O)[C@H]1O	EC50	-	BHK-21	cytopathic effect	-	Vesicular stomatitis virus	-	>400 µg/mL
CC1(C)[C@@H](O[C@H]2O[C@H](C(=O)O)[C@@H](O)[C@H](O)[C@H]2O[C@@H]2O[C@H](C(=O)O)[C@@H](O)[C@H](O)[C@H]2O)CC[C@]2(C)[C@H]3C(=O)C=C4[C@@H]5C[C@@](C)(C(=O)O)CC[C@]5(C)CC[C@@]4(C)[C@]3(C)CC[C@@H]12	EC50	-	VERO	cytopathic effect	TYPE 2 (NGC)	Dengue virus	-	174.2 µg/mL
O=C(NC(=O)c1c(F)cccc1F)Nc1cc(Cl)c(OC(F)(F)C(F)C(F)(F)F)cc1Cl	inhibition	1.25 µg/mL	RK-13	-	-	Encephalitozoon intestinalis	-	3.5%
CC[C@H]1OC(=O)[C@H](C)[C@@H](O[C@H]2C[C@@](C)(OC)[C@@H](O)[C@H](C)O2)[C@H](C)[C@@H](O[C@@H]2O[C@H](C)C[C@H](N(C)C)[C@H]2O)[C@](C)(OC)C[C@@H](C)C(=O)[C@H](C)[C@@H](O)[C@]1(C)O	MIC50	-	-	-	16 strains (methicillin- quinolone-resistant)	Staphylococcus aureus	-	>32 µg/mL
Nc1ccc(S(=O)(=O)c2ccc(N)cc2)cc1	MIC	-	-	-	Isolate 94-539	Mycobacterium ulcerans	-	2 µg/mL
C#CC[C@@H](C(=O)N[C@H](/C=C/C(=O)OCC)C[C@@H]1CCNC1=O)n1cccc(NC(=O)c2cc(C)on2)c1=O	EC50	-	H1-HELA	cytopathic effect / XTT	Serotype 78	Rhinovirus	-	0.05 µM
CCCCC1=Nc2c(cc(NC(=O)OCC)nc2N)NC1C	inhibition	0.1 µg/mL	RK-13	-	-	Encephalitozoon intestinalis	-	64.9%
Nc1ccnc2c1ncn2[C@H]1C=C[C@@H](OCP(=O)(O)O)O1	EC50	-	-	cytopathic effect	TAK (TYPE 41)	Adenovirus	-	6 µg/mL
CO[C@H]1/C=C/O[C@@]2(C)Oc3c(C)c(O)c4c(O)c(c(/C=N/N5CCN(C)CC5)c(O)c4c3C2=O)NC(=O)/C(C)=C\C=C\[C@H](C)[C@H](O)[C@@H](C)[C@@H](O)[C@@H](C)[C@H](OC(C)=O)[C@@H]1C	MIC50	-	-	-	16 strains (methicillin- quinolone-resistant)	Staphylococcus aureus	-	0.0078 µg/mL
CC(C)(CO)C(=O)SCCOP(=O)(NCc1ccccc1)OC[C@H]1O[C@@H](n2cnc3c(=O)[nH]c(N)nc32)[C@](C)(O)[C@@H]1O	fold resistance	-	Replicon cells	replicon	GT1b	Hepatitis C virus	R30E	0.52
Nc1ncnc2c1ncn2C[C@H](CO)OCP(=O)(O)O	EC50	-	-	cytopathic effect	adenoid 75 (TYPE 5)	Adenovirus	-	10 µg/mL
CCO/N=C/c1ccc(OCCC2CCN(c3ccc(C)nn3)CC2)cc1	EC50	-	KB	neutral red	58750 (ICAM-1 receptor group 43)	Rhinovirus	-	0.041 µM
CCOC(=O)Nc1cc2[nH]c(-c3ccccc3)nc2c(N)n1	inhibition	0.1 µg/mL	RK-13	-	-	Encephalitozoon intestinalis	-	0%
COc1cc(Cc2cnc(N)nc2N)cc(OC)c1Br	MIC	-	-	-	Isolate 5155	Mycobacterium ulcerans	-	8 µg/mL
CN[C@@H]1[C@H](O[C@H]2[C@H](O[C@H]3[C@H](O)[C@@H](O)[C@H](N=C(N)N)[C@@H](O)[C@@H]3N=C(N)N)O[C@@H](C)[C@]2(O)C=O)O[C@@H](CO)[C@H](O)[C@H]1O	MIC	-	-	-	-	Pseudomonas aeruginosa	-	25 µg/mL
CCOC(=O)Nc1nc(NC(=O)OCC)c2c(c1N)NC(C)C(c1ccccc1)=N2	inhibition	0.01 µg/mL	RK-13	-	-	Encephalitozoon intestinalis	-	0%
Nc1ncnc2c1ncn2C[C@@H](CO)OCP(=O)(O)O	EC50	-	-	cytopathic effect	Chicago (type 1)	Adenovirus	-	4 µg/mL
C[C@H](Cc1ccc(O)c(O)c1)[C@@H](C)Cc1ccc(O)c(O)c1	MIC100	-	-	broth dilution	CCC 126-2000	Candida albicans	-	250 µg/mL
COc1ccc(C(F)(F)F)cc1NCc1cnc2nc(N)nc(N)c2c1C	inhibition	0.1 µg/mL	RK-13	-	-	Encephalitozoon intestinalis	-	65.4%

Repeating the final 3 entries:

SMILES | read-out | tested at | cells | method | strain or isolate | species | changes | result
Nc1ncnc2c1ncn2C[C@@H](CO)OCP(=O)(O)O | EC50 | - | - | cytopathic effect | Chicago (type 1) | Adenovirus | - | 4 µg/mL
C[C@H](Cc1ccc(O)c(O)c1)[C@@H](C)Cc1ccc(O)c(O)c1 | MIC100 | - | - | broth dilution | CCC 126-2000 | Candida albicans | - | 250 µg/mL
COc1ccc(C(F)(F)F)cc1NCc1cnc2nc(N)nc(N)c2c1C | inhibition | 0.1 µg/mL | RK-13 | - | - | Encephalitozoon intestinalis | - | 65.4%

Blank or dashed fields: not listed here. ECn: concentration that inhibits the pathogen or its effect by n%. Inhibition is in % at the dose shown (toxicity tests: loss of growth or viability). MIC50, MIC90 and the like: level of inhibition, or share of isolates inhibited. Fold resistance has wild type as its base.